Compound potency records, mixed from different reports. Data source: NIAID ChemDB in PubChem.

Common to all: whole-cell or culture tests; agent: Rhinovirus

Blank or dashed fields: not listed here. Percent inhibition refers to the dose given; in toxicity tests it is the harm to the cells. Lines come from different laboratories, so protocols vary. a–b is a range or a potency band. ECn: concentration that inhibits the pathogen or its effect by n%.

SMILES	strain or isolate	cells	read by	read-out	dose	result
CN1CCC2(C1)C1CCCC2CCC1		HeLa		inhibition	100 µM	<20%
COc1ccc(CNC(=O)c2c(O)cc(OCC=C(C)C)cc2OC)cc1	TYPE 9	HeLa	cytopathic effect	EC50		0.063 µg/mL
O=c1c2ccccc2ccc2ccccc12	TYPE 16	HELA-H1	cytopathic effect	EC50		10 µM
CCOc1cc(O)c(C(=O)NCc2ccc(OC)cc2)c(OC)c1	TYPE 9	HeLa	cytopathic effect	EC50		0.063 µg/mL
C1CCC2(CC1)CCNC2		HeLa		inhibition	100 µM	20–40%
N=C(N)CCNC(=O)[C@H]1CCC(N)=N1	TYPE 2			MIC		3 µg/mL
CCOc1cc(O)c(C(=O)/C=C/c2ccc(OC)cc2)c(OC)c1	TYPE 9	HeLa	cytopathic effect	EC50		0.063 µg/mL
CN1CCC2(C1)C1CC3CC(C1)CC2C3		HeLa		inhibition	100 µM	>70%
S=C(S)N1CCCC1	TYPE 14	HeLa		EC50		>31 µM
OC1c2ccccc2C=Cc2ccccc21	TYPE 16	HELA-H1	plaque count	inhibition	20 µM	50%
NC12CC3CC(CC(C3)C1)C2		HeLa		inhibition	100 µM	<20%
Cc1c(C)c2c(c(C)c1O)CCC(C)(C(=O)O)O2		HeLa		inhibition	31 µM	80%
C#CC[C@@H](C(=O)N[C@H](/C=C/C(=O)OCC)C[C@@H]1CCNC1=O)n1cccc(NC(=O)c2cc(C)on2)c1=O	Serotype 9	H1-HELA	cytopathic effect / XTT	inhibition	0.239 µM	90%
CCO/N=C/c1ccc(OCCC2CCN(c3ccc(C)nn3)CC2)cc1	SF-1662 (ICAM-1 receptor group 92)	KB	neutral red	EC50		0.001 µM
Clc1ccc(C2CCc3ccccc3O2)c(Cl)c1	TYPE 2	HeLa	cytopathic effect	EC50		0.12–0.25 µg/mL
O=C(O)Cc1csc(/N=C2\SCC3Cc4ccccc4CN23)n1	TYPE 1B			MIC		0.15 µg/mL
Cc1ccc(C)c(CN2CCN(c3nc(C(=O)O)cs3)CC2)c1	TYPE 9	HeLa	cytopathic effect	EC50		>1 µg/mL
Oc1ccc2oc3ccccc3c2c1	TYPE 16	HELA-H1	plaque count	inhibition	20 µM	80%
CC(C)S(=O)(=O)n1c(N)nc2ccc(/C(=N/O)c3ccccc3)cc21	Serotype 70	HeLa	plaque count	EC50		<0.01 µg/mL

For reference, 2 entries again:

SMILES | strain or isolate | cells | read by | read-out | dose | result
COc1ccc(CNC(=O)c2c(O)cc(OCC=C(C)C)cc2OC)cc1 | TYPE 9 | HeLa | cytopathic effect | EC50 |  | 0.063 µg/mL
O=C(O)Cc1csc(/N=C2\SCC3Cc4ccccc4CN23)n1 | TYPE 1B |  |  | MIC |  | 0.15 µg/mL